Measured values reported in patent US20210147343A1 (priority 2018, published 2021).

System: Male Sprague-Dawley rats
Test: Respiratory depression assay
Conditions: rat, fentanyl 3 mg/kg SC then Compound B-15 30 mg/kg SC, plethysmograph, FIG. 2

CN(C)[C@H](CNC(=O)[C@@H]1C[C@]1(C)c1ccccc1)Cc1ccc(O)cc1Cl [Compound B-15, (1R,2S)—N—((S)-3-(2-chloro-4-hydroxyphenyl)-2-(dimethylamino)-propyl)-2-methyl-2-phenylcyclopropane-1-carboxamide]
effect on the respiratory depression of fentanyl (minute volume): blocks
